This passage reports inhibition results from PubChem BioAssay AID651607 (The Scripps Research Institute Molecular Screening Center, 2012).

Only a part is listed here, and it is no random draw. Activity calls are given as the source filed them. No stated cut-off is given here; in the data, active means inhibition above about 17%; inactive means the rest.

A word on the inhibition: it is how much of the control response was suppressed.

The test system of the experiment is methionyl-tRNA synthetase (Trypanosoma brucei brucei). Put plainly: inhibition of trypanosome methionyl-tRNA synthetase – biochemical, fluorescence polarization, orthogonal assay for T. brucei MetRS inhibitor project (AID 651607).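 Further: 0% = vehicle wells.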 The following applies: purified T. brucei MetRS, at 11.9 µM, stronger effect = higher value. In general terms: In fluorescence polarisation assays a small probe gives low polarisation when free and higher when bound to something large.
On to `CCC1=CC2Cc3nc4ccc(Cl)cc4c(N)c3C(C1)C2` (configuration not stated), for which the inhibition was active: 90.5%. Under `O=P(Nc1nc2ccc(Cl)cc2s1)(c1ccccc1)c1ccccc1` stands active: 19.2%.
